Anti-infective test results gathered from many reports (values: NIAID ChemDB through PubChem).

Shared fields: cytotoxicity tests; cells: MT-4; endpoint: CC50

Blank or dashed fields: not listed here. Lines come from different laboratories, so protocols vary. CCn is the concentration with n% toxicity to the cells.

structure,method,result
COc1ccc(C=Nc2ccc(N3C(=O)c4ccc(Cl)cc4C3=O)c(C)c2)cc1,MTT / absorbance,0.309 µM
CC1=NO[C@@]2(CC[C@H](C)N3C[C@H]2n2cc(C(=O)NCc4ccc(F)cc4F)c(=O)c(OCOC(=O)O[C@@H]4CC[C@H](OP(=O)(O)O)C4)c2C3=O)C1,luminescence,50 µM
c1cc(CNCCCN2CCOCC2)ccc1CNCCCN1CCOCC1,MTT,>320.1 µM
Nc1nc2c(ncn2C/C=N/OCP(=O)(O)O)c(=O)[nH]1,absorbance,>1000 µM
CC(C)CN(C[C@@H](O)[C@H](Cc1ccccc1)NC(=O)O[C@H]1CCOC1)S(=O)(=O)c1ccc(N)cc1,WST,>100 µM
COc1ccccc1/C=N/NC(=O)c1csc(N2N=C(c3ccccc3)CC2c2ccc(Cl)cc2)n1,MTT / absorbance,10.32 µM
CC1CCCCN1CCCNCc1ccc(CNCCCN2CCCCC2C)cc1,MTT,>60.3 µM
CS(=O)(=O)c1ccc(OP(=O)(OC[C@@H]2CC[C@H](n3cnc4c(=O)[nH]cnc43)O2)OC[C@@H]2CC[C@H](n3cnc4c(=O)[nH]cnc43)O2)cc1,trypan blue,>250 µM
CC[C@H](C)[C@H](NP(=O)(OC[C@H]1C=C[C@@H](n2cnc3c(N)ncnc32)C1)Oc1ccccc1)C(=O)OC,trypan blue,99.6 µM
Nc1ncnc2c1ncn2C/C=N/OCP(=O)(O)O,absorbance,>1000 µM
Cc1cn([C@H]2C[C@H](N=[N+]=[N-])[C@@H](CO)O2)c(=O)[nH]c1=O,MTT / absorbance,>25 µM
CC(=O)c1ccc(NC(=O)CSc2nc(CC34CC5CC(CC(C5)C3)C4)c(C)c(=O)[nH]2)c(Br)c1,MTT / absorbance,23.73 µM
CC(C)OC(=O)[C@H](C)NP(=O)(OC[C@H]1C=C[C@@H](n2cnc3c(N)ncnc32)C1)Oc1ccccc1,MTS,100 µM
CCCCNC(=S)N/N=C(\C)c1nc2ccc(Cl)cc2[nH]1,MTT,1.69 µg/mL
CC1=NO[C@@]2(CC[C@H](C)N3C[C@H]2n2cc(C(=O)NCc4ccc(F)cc4F)c(=O)c(OCOC(=O)N(C)Cc4ccc(OP(=O)(O)O)cc4)c2C3=O)C1,luminescence,50 µM
Cc1cc(NC(=S)c2ccccc2)ccc1N1C(=O)c2ccc(Cl)cc2C1=O,MTT / absorbance,1.222 µM
C=C(C)C12C[C@@H](COCc3ccccc3)[C@@]3(OO1)[C@@H]1[C@H]2OCCCCCCC[C@H](C)[C@@H]2[C@@H]3C3(O[C@]2(C)OC3=O)[C@H](O)[C@@]2(CO)O[C@@H]12,ATP / luminescence,3.4 µM
COc1cc(/C=C/c2cc[n+]3c(c2)-c2c(c(C)c(C)c4c2-c2cc(/C=C/c5cc(OC)c(OC)cc5COc5ccccc5)cc[n+]2CC4)CC3)c(COc2ccccc2)cc1OC.O=S(=O)([O-])C(F)(F)F.O=S(=O)([O-])C(F)(F)F,absorbance,>50 µM
O=c1ccn([C@H]2C=C[C@@H](CO)O2)c(=O)[nH]1,trypan blue,42 µM
CCOC(=O)c1csc(N2N=C(c3ccccc3)CC2c2ccc(Cl)cc2)n1,MTT / absorbance,11.51 µM
CC1=NO[C@@]2(CC[C@H](C)N3C[C@H]2n2cc(C(=O)NCc4ccc(F)cc4F)c(=O)c(OCOC(=O)OCC4(COP(=O)(O)O)CCC4)c2C3=O)C1,luminescence,15.1 µM
C=C(C)[C@H]1[C@@H]2OC3(CCCCCCCCC)O[C@@H]2[C@@H]2[C@@H]4O[C@]4(CO)[C@@H](O)[C@]4(O)C(=O)C(C)=C[C@H]4[C@@]2(O3)[C@@H]1C,luminescence,>0.03 µM
Cc1cc(NC(=S)Cc2ccc3ccccc3c2)ccc1N1C(=O)c2ccc(Cl)cc2C1=O,MTT / absorbance,0.415 µM
Cc1cccc(C)c1OCC(=O)N[C@@H](Cc1ccccc1)[C@@H](O)C[C@H](Cc1ccccc1)NC(=O)[C@H](C(C)C)N1CCCNC1=O,WST,46.9 µM
Cc1cc(NS(C)(=O)=O)ccc1N1C(=O)c2ccc(Cl)cc2C1=O,MTT / absorbance,0.269 µM
CC(C)=CCc1c(O)ccc(C2COc3c(CC=C(C)C)c(O)cc(O)c3C2=O)c1O,,10 µg/mL
C=C(C)[C@]12C[C@@H](C)[C@@]34OC5(CCCCCCC[C@H](C)[C@H]6[C@H](C)[C@H](OC(=O)c7ccccc7)[C@@](O)([C@H](O)[C@@]7(CO)O[C@H]7[C@H]3[C@H]1O5)[C@@H]64)O2,luminescence,>0.03 µM
Cc1ccnc2c1NC(=O)c1cccnc1N2C1CC1,MTT / absorbance,>10 µM
C[C@H](NP(=O)(OC[C@H]1C=C[C@@H](n2cnc3c(N)ncnc32)C1)Oc1ccccc1)C(=O)OC(C)(C)C,trypan blue,84.9 µM
Cc1cn([C@H]2C[C@H](N=[N+]=[N-])[C@@H](CO)O2)c(=O)[nH]c1=O,trypan blue / absorbance,80 µM
Cc1cn([C@H]2C[C@H](N=[N+]=[N-])[C@@H](CO)O2)c(=O)[nH]c1=O,ATP / luminescence,>0.1 µM
Cc1c(CC23CC4CC(CC(C4)C2)C3)nc(SCC(=O)Nc2ccc(C(N)=O)cc2)[nH]c1=O,MTT / absorbance,29.15 µM
O=C(N/N=C/c1ccc(Cl)cc1)c1csc(N2N=C(c3ccccc3)CC2c2ccc(Cl)cc2)n1,MTT / absorbance,>125 µM
CCc1c(CC23CC4CC(CC(C4)C2)C3)nc(SCC(=O)c2ccc(OC)cc2)[nH]c1=O,MTT / absorbance,17.19 µM
O=C(N/N=C/c1ccc(Cl)cc1O)c1csc(N2N=C(c3ccccc3)CC2c2ccc(Cl)cc2)n1,MTT / absorbance,0.45 µM
COc1ccc(C(=O)CSc2nc(CC34CC5CC(CC(C5)C3)C4)c(C)c(=O)[nH]2)cc1,MTT / absorbance,>285 µM
Nc1ncnc2c1ncn2[C@H]1C=C[C@@H](CO)O1,trypan blue,10 µM
c1cc(CNCCCCN2CCCCC2)ccc1CNCCCCN1CCCCC1,MTT,>60.29 µM
CCc1c(CC23CC4CC(CC(C4)C2)C3)nc(SCC(=O)Nc2ccc(S(N)(=O)=O)cc2)[nH]c1=O,MTT / absorbance,12.25 µM
O=C(N/N=C/c1cc(Br)ccc1O)c1csc(N2N=C(c3ccccc3)CC2c2ccc(Cl)cc2)n1,MTT / absorbance,>125 µM
C=C(C)[C@]12C[C@@H](COC(=O)c3ccccc3)[C@@]34OC5(O[C@@H]1[C@@H]3[C@@H]1O[C@]1(CO)[C@@H](O)[C@@]1(O)[C@H]4[C@H]([C@H](C)[C@@H]1OC(=O)c1ccccc1)[C@H](C)CCCCCC[C@H]5O)O2,luminescence,>0.025 µM
Cc1c(CC23CC4CC(CC(C4)C2)C3)nc(SCC(=O)c2ccccc2)[nH]c1=O,MTT / absorbance,>306 µM
C/C(=N\NC(N)=S)c1nc2ccc(Cl)cc2[nH]1,MTT,2.67 µg/mL
COc1ccc(C2CC(=O)c3c(O)cc(O)cc3O2)c(CC=C(C)C)c1OC,,>100 µg/mL
O=C(NCc1c(F)cc(F)cc1F)c1cn2c(c(O)c1=O)C(=O)N1C3CCC(CC3)O[C@@H]1C2,ATP,3.544 µM
C=C(C)[C@]12C[C@@H](COC(C)=O)[C@@]34OC5(O[C@@H]1[C@@H]3[C@@H]1O[C@]1(CO)[C@@H](O)[C@@]1(O)[C@H]4[C@H]([C@H](C)[C@@H]1OC(=O)c1ccccc1)[C@H](C)CC(OC(=O)c1ccccc1)C(OC(C)=O)C(OC(=O)c1ccccc1)CC[C@H]5O)O2,luminescence,>0.025 µM
Cc1cc(NC(=S)c2ccc(Cl)cc2)ccc1N1C(=O)c2ccc(Cl)cc2C1=O,MTT / absorbance,0.517 µM
CC1=NO[C@@]2(CC[C@H](C)N3C[C@H]2n2cc(C(=O)NCc4ccc(F)cc4F)c(=O)c(OCOC(=O)N4CCOC[C@@H]4COP(=O)(O)O)c2C3=O)C1,luminescence,50 µM
Cc1cc(NC(=O)c2ccc(Cl)cc2)ccc1N1C(=O)c2ccc(Cl)cc2C1=O,MTT / absorbance,0.256 µM
Cc1cn([C@H]2C[C@H](N=[N+]=[N-])[C@@H](CO)O2)c(=O)[nH]c1=O,MTT / absorbance,>100 µM
Cc1cc(NS(=O)(=O)c2ccc([N+](=O)[O-])cc2)ccc1N1C(=O)c2ccc(Cl)cc2C1=O,MTT / absorbance,0.2 µM
CC(=O)Oc1ccc(/C=C/C(=O)O[C@H](C(=O)O)[C@H](OC(=O)/C=C/c2ccc(OC(C)=O)c(OC(C)=O)c2)C(=O)O)cc1OC(C)=O,XTT,60 µM
Cc1nc2ccccc2c(-c2ccc3c4c(cccc24)C2CC32)c1[C@H](OC(C)(C)C)C(=O)O,ATP,31.8 µM
O=C(N/N=C/c1ccc(O)cc1)c1csc(N2N=C(c3ccccc3)CC2c2ccc(Cl)cc2)n1,MTT / absorbance,17.75 µM
COC(=O)[C@H](C)NP(=O)(OC[C@@H]1CC[C@H](n2cnc3c(N)ncnc32)C1)Oc1ccccc1,MTS,6.5 µM
CO[C@H]1CC[C@H](C)N2C[C@H]1n1cc(C(=O)NCc3ccc(F)c(Cl)c3F)c(=O)c(O)c1C2=O,luminescence,4.272 µM
COc1cc(O)c2c(=O)c3cc(OC)ccc3oc2c1,ATP / luminescence,>10 µM
C=C(C)C12C[C@@H](COCc3ccccc3)[C@@]3(OO1)[C@@H]1[C@H]2O[C@H](O)CCCCCC[C@@H](C)[C@H]2[C@H](C)[C@H](OCc4ccccc4)[C@@](O)([C@H](O)[C@@]4(CO)O[C@@H]14)[C@@H]23,ATP / luminescence,2.8 µM
COC(=O)[C@H](C)NP(=O)(OC[C@H]1C=C[C@@H](n2cnc3c(N)ncnc32)C1)Oc1ccc(Cl)c(Cl)c1,trypan blue,15.6 µM
CCCCCCCCCCCCCC(=O)OCc1ccccc1C(=O)Oc1c2n(cc(C(=O)NCc3ccc(F)cc3F)c1=O)[C@@H]1CN(C2=O)[C@@H](C)CC[C@]12CC(C)=NO2,luminescence,50 µM
COCOc1cc(O)c(C(=O)/C=C/c2ccc(OCOC)c(OCOC)c2)c(OCOC)c1,,14 µg/mL
C=C(C)C12C[C@@H](C)[C@@]3(OO1)[C@H]([C@H]2O/C=C/C=C/CCCCCCCCC)[C@@H]1O[C@]1(CO)[C@@H](O)[C@]1(O)C(=O)C(C)=C[C@H]13,ATP / luminescence,9.4 µM
CC1=NO[C@@]2(CC[C@H](C)N3C[C@H]2n2cc(C(=O)NCc4ccc(F)cc4F)c(=O)c(OCOC(=O)N4CCC[C@H]4COP(=O)(O)O)c2C3=O)C1,luminescence,50 µM
Cc1ccnc2c1NC(=O)c1cccnc1N2C1CC1,MTT / absorbance,>4 µM
COc1ccc(Oc2coc3cc(OC)cc(O)c3c2=O)c(OC)c1,,>100 µg/mL

Repeating the first 6 entries:

| structure | method | result |
|---|---|---|
| COc1ccc(C=Nc2ccc(N3C(=O)c4ccc(Cl)cc4C3=O)c(C)c2)cc1 | MTT / absorbance | 0.309 µM |
| CC1=NO[C@@]2(CC[C@H](C)N3C[C@H]2n2cc(C(=O)NCc4ccc(F)cc4F)c(=O)c(OCOC(=O)O[C@@H]4CC[C@H](OP(=O)(O)O)C4)c2C3=O)C1 | luminescence | 50 µM |
| c1cc(CNCCCN2CCOCC2)ccc1CNCCCN1CCOCC1 | MTT | >320.1 µM |
| Nc1nc2c(ncn2C/C=N/OCP(=O)(O)O)c(=O)[nH]1 | absorbance | >1000 µM |
| CC(C)CN(C[C@@H](O)[C@H](Cc1ccccc1)NC(=O)O[C@H]1CCOC1)S(=O)(=O)c1ccc(N)cc1 | WST | >100 µM |
| COc1ccccc1/C=N/NC(=O)c1csc(N2N=C(c3ccccc3)CC2c2ccc(Cl)cc2)n1 | MTT / absorbance | 10.32 µM |